From the supplement of paper PMC9931576
Human monoclonal antibodies against the spike receptor-binding domain (heavy:light variable regions). IC50 against pseudoviruses bearing the spike of naturally observed variants; lower = stronger; >10 µg/ml means not reached at the top dose. No active / inactive call. The stated detection limit is 0.0005 µg/ml; values near or below 0.001 µg/ml lie at the floor of the assay.

Experiments:
Test in all cases: pseudovirus neutralization IC50; higher = weaker neutralization
[1] = biological target: SARS-CoV-2 Omicron BA.1 spike pseudovirus
Procedure: (§1)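 Single-round VSV luciferase pseudovirus mixed with antibody dilutions for 1 h and put on Huh-7 cells for about a day; IC50 from the dose curve.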

[2] = biological target: SARS-CoV-2 Omicron BA.2 spike pseudovirus
Procedure: as §1

[3] = biological target: SARS-CoV-2 Omicron BA.2.75 spike pseudovirus
Procedure: as §1

[4] = biological target: SARS-CoV-2 Omicron BA.5 spike pseudovirus
Procedure: as §1

[5] = biological target: SARS-CoV-2 Omicron BQ.1.1 spike pseudovirus
Procedure: as §1

[6] = biological target: SARS-CoV-2 Omicron XBB spike pseudovirus
Procedure: as §1

[7] = biological target: SARS-CoV-2 early D614G spike pseudovirus
Procedure: as §1

Row | Binder | pseudovirus neutralization IC50 [1] | pseudovirus neutralization IC50 [2] | pseudovirus neutralization IC50 [3] | pseudovirus neutralization IC50 [4] | pseudovirus neutralization IC50 [5] | pseudovirus neutralization IC50 [6] | pseudovirus neutralization IC50 [7]
1 | BD56-201 (protein) chain 1: QITLKESGPTLVKPTQTLTLTCTFSGFSLTTSGVSVGWIRQPPGEALEWLALIFWDDDKRYSPSLKSRLTITKDPSKNQIVLTMTNMGPVDTATYFCAHSAYSTSWYDHAFDFWGQGSLVTVSS chain 2: QSVLTQPPSVSEAPRQRVTISCSGGSSNIGHNAVNWYQQLPGKAPKLLIYYDDLRPSGVSDRFSGSKSGTSASLAISGLQSEDEADYYCAAWDDSLNGPVFGGGTKLTVL | 4.68 µg/mL | 4.71 µg/mL | 4.47 µg/mL | 4.54 µg/mL | 5.18 µg/mL | 5.81 µg/mL | 4.47 µg/mL
2 | BD56-200 (protein) chain 1: QLQLQESGPGLVKPSETLSLTCTVSGDSISRSFYYWGWIRQPPGKGLEWIGNIHNGGSTYYNPSLKSRVTMSIDTSKNRFSLKLSSVTATDTAVYYCARPTGFPDFGFDPWGPGTLVIVSS chain 2: QSVLTQPPSASGTPGQRVTISCSGSSSNIGSNSVNWYQQLPGTAPKLLIYSNNQRPSGIPDRFSGSKSGTSASLALGGLQSEDEADYYCAAWDDSLNVWVFGGGTKLTVL | > 10 µg/mL | > 10 µg/mL | > 10 µg/mL | > 10 µg/mL | > 10 µg/mL | > 10 µg/mL | > 10 µg/mL
3 | BD56-198 (protein) chain 1: QITLKESGPTLVKPTQTLTLTCTFSGFSLSTSGVSVGWIRQPPGKALEWLALIYWDDDKRYSPSVKSRLTLTKDTSKKQVVLTMTNVDPVDTATYYCVLKDYYGSGRSLNWGYFDYWGQGTLVTVSS chain 2: DIQMTQSPSSLSASVGDRVTLTCRASQSINMYLNWYQQIPGEAPKLLIYAASSLQSGVPSRFSGSGSGTDFTLTITSLQAEDFATYYCQQSYSNVYTFGQGTKLEIK | 4.07 µg/mL | 5.84 µg/mL | 2.7 µg/mL | 3.9 µg/mL | 2.88 µg/mL | 2.93 µg/mL | 2.47 µg/mL
4 | BD56-178 (protein) chain 1: QVQLVQSGAEMKKPGASVKVSCKASGYTFTTYGISWVRQAPGQGLEWMGWISAYDGHTKYAQRFQGRVTTTADTVASTAYLELRSLRSDDTAVYYCARDLFTKDYYDSSDFDYWGQGTLVTVSS chain 2: SYELTQPSSVSVSPGQTARITCSGDVLTKKYARWFQQKPGQAPVMVIYKDNERPSGIPERFSGSSSGTTVTLTISGAQVEDEADYYCFCATDNNRLFGGGTKLTVL | 3.01 µg/mL | 4.72 µg/mL | 6.09 µg/mL | 4.49 µg/mL | 2.55 µg/mL | 6.2 µg/mL | > 10 µg/mL
5 | BD56-205 (protein) chain 1: QVQLVQSGTEVKKPGASVKVSCKASGYTFTSYGITWVRQAPGQGLEWMGWISAYNGNTNYAQKFQGRVTMTTDTSTSTAYMELRSLRSDDTAVYYCARDYDYVWGSYPTDFEWWGQGTLVTVSS chain 2: QSALTQPASVSGSPGQSITISCTGTSGDVGSYNLVSWYQQHPGKAPKLMIYEISKRPSGVSNRFSGSKSGKRASLTISGLQAEDEADYYCCSYEGSSPFAHWVFGGGTKLTVL | 0.468 µg/mL | 0.688 µg/mL | 1.04 µg/mL | 0.461 µg/mL | 2.77 µg/mL | 1.61 µg/mL | 0.859 µg/mL
6 | BD56-181 (protein) chain 1: QVHLVQSGSELKKPGASVRVSCKASGYTFTDYSMNWVRQAPGQGLEWLGWINTNTGIPRYAQGFTGRFVFSLDTSVSTAYLHINSLKSEDTAVYYCARVWSYWNDASDAFDIWGQGTRVTVSS chain 2: QSALTQPASVSGSPGQSITISCTGTSSDVGSYDLVSWFQQHPGKAPKLMIYEGNKRPSGIPNRFSGSKSGNTASLTISGLQADDEANYYCCSFARSTTWVFGGGTKLTVL | 1.64 µg/mL | 1.91 µg/mL | 1 µg/mL | 3.36 µg/mL | > 10 µg/mL | > 10 µg/mL | 1.3 µg/mL
7 | BD56-194 (protein) chain 1: QVQLVQSGAEVKKPGSSVRVSCKASGDTFRGHAISWVRQAPGQGLEWMGGIIPMFGRPNYAQKFKGRVTITADKSTNTAYMELTSLRSEDTAVYYCAGVASGMTVGDPRTAGDYWGQGTLVTVSS chain 2: QSVLTQPPSVSAAPGQKVTISCSGSSSNIGNHYVSWYQQLPGSAPKLLISDDNKRPSGIPDRFSGSKSGTSATLGITGLRTGDEADYYCGTWDNGLRAWVFGGGTKLTVL | > 10 µg/mL | > 10 µg/mL | > 10 µg/mL | > 10 µg/mL | > 10 µg/mL | > 10 µg/mL | > 10 µg/mL
8 | BD56-199 (protein) chain 1: DVQLVQSGAEVRNPGESLMISCKVSGYNFATYWIGWVRQMSGKGLEWMGIIYPGDSETRYSPSFQGQVTISVDKSISTAYLQWTSLKASDTAMYYCVRDLCGGDCPFDYWGQGTLVTVSS chain 2: EIVLTQSPATLSLSPGERATLSCGASQSVSSSYLAWYQQKPGLAPRLLIYDTSIRATGIPDRFSGSGSGTDFTLTISRLEPEDFAVYYCQQYGASPRFSFGQGTKLETK | > 10 µg/mL | > 10 µg/mL | > 10 µg/mL | > 10 µg/mL | > 10 µg/mL | > 10 µg/mL | > 10 µg/mL
9 | BD56-209 (protein) chain 1: EVQLVQSGAEVKKAGEALKISCKCSGYFFISNWIAWVRQMPGKGLEWMGIIFPGDSDTTYSPSFQGQVTISVDKSITTAYLQWTSLKASDTAMYYCARRGSVWDLDFWGQGTLVTVSP chain 2: QSVLTQPPSASGTPGQTVIISCSGSSSNIGGNPVNWYRQLPGTAPKLLIHNNNQRPAGVPDRFSGSKSGTSASLAISGLQSDDEAHYYCAPWDDRLNGWVFGGGTKLTVL | 0.641 µg/mL | 1.17 µg/mL | 0.586 µg/mL | 0.911 µg/mL | 0.634 µg/mL | 1.65 µg/mL | 1.2 µg/mL
10 | BD56-177 (protein) chain 1: QVQLVQSGAGVEKPGSSVKVSCKASGGTFSTFAISWVRQVPGQGLEWVGGIIPISGSSNYAQKFRGRVTLTADASTSTVHMELSSLRAEDTAVYYCARGEDRVLTGWVNYFDSWGQGTLVTVSS chain 2: SYVLTQPPSVSVAPGQTARITCGGNNLGSKNVHWYQQMPGQAPVLVVFDDSDRPSGIPERFSGSNSGNTATLTIARVEAGDEADYYCQVWDSTADHPPYVFGTGTRVTVL | > 10 µg/mL | > 10 µg/mL | > 10 µg/mL | > 10 µg/mL | > 10 µg/mL | > 10 µg/mL | > 10 µg/mL
11 | BD56-183 (protein) chain 1: QVQLVESGGGVVQPGRSLRLSCAASGFTFSIYAMHWVRQAPGKGLEWVSVISYDESNEYYADSVKGRFTISRDNSKNTLYLQMNSLRVEDTAMYYCARDRSLGDVSALTTGCPENWGQGTRVTVSS chain 2: DIQMTQSPSSLSASVGDRVTITCQASQDISNYLNWYQQKPGKAPKLLIYDASNLKTGVPSRFSGSGSGTEFTFTISSLQPEDVATYYCQQYHNLPPLTFGGGTKVEIK | 9.72 µg/mL | > 10 µg/mL | > 10 µg/mL | > 10 µg/mL | > 10 µg/mL | > 10 µg/mL | > 10 µg/mL
12 | BD56-197 (protein) chain 1: EVQLVESGGGLVKPGGSLRLSCAASGFTFSTYSMNWVRQAPGKGLEWVSFIGTSSNHIYYADSVKGRFIISRDNAKNSVYLQMNSLRAEDTAVYYCARDNEWLEWSSMDVWGQGTTVTVSS chain 2: EIVLTQSPGTLSLSPGERATLSCRASQSVSSSYLAWYQQKPGQAPRLVIYGALSRAIGIPDRFSGSGSGTDFTLTISRLEPEDFAVYYCQQDGGSRYTFGQGTKLEIK | 2.23 µg/mL | 3.74 µg/mL | 3.15 µg/mL | 3.84 µg/mL | 4.05 µg/mL | 3.98 µg/mL | 3.03 µg/mL
